Compound potency records, mixed from different reports. Data source: NIAID ChemDB in PubChem.

Common to all: growth or infection tests; organism: HIV-1; cells: CEM; measure: fold resistance

Fold resistance: result on the changed form divided by that on wild type.

SMILES,strain or isolate,changes,method,value
Nc1ncnc2c1ncn2CCOCP(=O)(O)O,IIIB-Pyridinone(0.1)(RT-V179N,RT-V179N,syncytia,1.86
CC(C)=CCOc1cc(NC(=S)c2ccoc2C)ccc1Cl,E-2 (RT-V106A),RT-V106A,cytopathic effect,3
Cc1cn([C@H]2C[C@H](N=[N+]=[N-])[C@@H](CO)O2)c(=O)[nH]c1=O,IIIB TSAO-T(RT-E138K),RT-E138K,syncytia,3
CCOCn1c(Sc2ccccc2)c(CC)c(=O)[nH]c1=O,IIIB E-EBU(RT-Y181C),RT-Y181C,syncytia,≥4000
CC(C)=CCOc1cc(NC(=S)c2ccoc2C)ccc1Cl,IIIB,RT-V179D,cytopathic effect,3
CC(C)Nc1cccnc1N1CCN(C(=O)c2cc3cc(NS(C)(=O)=O)ccc3[nH]2)CC1,J-2 (RT-Y181C),RT-Y181C,cytopathic effect,3
CC(C)=CCN1Cc2cc(Cl)cc3[nH]c(=S)n(c23)C[C@@H]1C,IIIB TIBO R82913 STR-B02 (RT L100I E138K),RT-L100I E138K,syncytia,250
Cc1cn([C@@H]2O[C@H](CO[Si](C)(C)C(C)(C)C)C3(OS(=O)(=O)C=C3N)[C@H]2O[Si](C)(C)C(C)(C)C)c(=O)n(C)c1=O,IIIB,RT-Y181C,cytopathic effect,22
Nc1ncnc2c1ncn2CCOCP(=O)(O)O,IIIB TIBO R82913 STR-1 (RT L100I Y181C),RT-L100I Y181C,syncytia,3.57
CCc1cc(NCc2nc3c(Cl)ccc(Cl)c3o2)c(=O)[nH]c1C,IIIB PYR(RT-Y181C),RT-Y181C,syncytia,≥714
CC(C)=CCOc1cc(NC(=S)c2ccsc2C)ccc1Cl,IIIB,RT-L100I,syncytia,278
CC(C)=CCN1Cc2cc(Cl)cc3[nH]c(=S)n(c23)C[C@@H]1C,IIIB NEV(RT-V106A),RT-V106A,syncytia,25
Cc1cn([C@@H]2O[C@H](CO[Si](C)(C)C(C)(C)C)[C@@]3(OS(=O)(=O)C=C3N)[C@H]2O[Si](C)(C)C(C)(C)C)c(=O)[nH]c1=O,IIIB TIBO R82150-resistant (RT L100I),RT-L100I,syncytia,7
Nc1ccn([C@H]2CC[C@@H](CO)O2)c(=O)n1,IIIB-BHAP)(0.1)(RT-L100I,RT-L100I,syncytia,0.4
CCOCn1c(Sc2ccccc2)c(CC)c(=O)[nH]c1=S,IIIB TIBO R82913-resistant (RT K103N),RT-K103N,syncytia,192.5
CCOCn1c(Cc2ccccc2)c(C(C)C)c(=O)[nH]c1=O,B-1 (RT L100V K103R/K Y188H),RT-L100V K103R/K Y188H,cytopathic effect,4
CCNc1cccnc1N1CCN(C(=O)c2cc3cc(OC)ccc3[nH]2)CC1,IIIB-Pyridinone(0.1)(RT-V179N,RT-V179N,syncytia,26.5
Cc1occc1C(=S)Nc1ccc(Cl)c(/C=N/OC(C)(C)C)c1,IIIB,RT-V179D,syncytia,15.45
CCOCn1c(Cc2cc(C)cc(C)c2)c(CC)c(=O)[nH]c1=O,IIIB TSAO-T(RT-E138K),RT-E138K,syncytia,70
Cc1cn([C@@H]2O[C@H](CO[Si](C)(C)C(C)(C)C)C3(OS(=O)(=O)C=C3N)[C@H]2O[Si](C)(C)C(C)(C)C)c(=O)n(C)c1=O,IIIB-Pyridinone(0.1)(RT-V179N,RT-V179N,syncytia,7.33
CCn1c(=O)c(C)cn([C@@H]2O[C@H](CO[Si](C)(C)C(C)(C)C)C3(OS(=O)(=O)C=C3N)[C@H]2O[Si](C)(C)C(C)(C)C)c1=O,IIIB TSAO-T(RT-E138K),RT-E138K,syncytia,>1670
Cc1c(Sc2ccccc2)n(COCCO)c(=O)[nH]c1=O,IIIB BHAP(RT-L100I),RT-L100I,syncytia,5.33

For reference, 2 entries again:

SMILES | strain or isolate | changes | method | value
CCc1cc(NCc2nc3c(Cl)ccc(Cl)c3o2)c(=O)[nH]c1C | IIIB PYR(RT-Y181C) | RT-Y181C | syncytia | ≥714
CC(C)=CCN1Cc2cc(Cl)cc3[nH]c(=S)n(c23)C[C@@H]1C | IIIB NEV(RT-V106A) | RT-V106A | syncytia | 25

Rows are shuffled and stem from different studies.